Data as given in paper doi:10.1101/2021.08.09.455663.

Columns and labels:
[1] = tested on: pSTAT1d (phosphorylated STAT1 core dimer) + TgIST-T2; experiment: EMSA supershift; settings: TgIST-T2 titrated onto preformed pSTAT1d-DNA, 2nd GAF
[2] = tested on: pSTAT1d (phosphorylated STAT1 core dimer) + GST-TgIST-R2; experiment: EMSA supershift; settings: 2nd GAF
[3] = tested on: pSTAT1d (phosphorylated STAT1 core dimer) + TgIST-T2; experiment: competition EMSA; settings: excess cold probe reduces 2nd GAF

Measured: binding result

GATGTATTTCCCAGAAAAGG (double strand) [GAS probe (Fc-gamma receptor gene)]
binds: all assays above

For at least one entry, the source does not settle the construct or the ends of the probe.
